Results of unrelated studies side by side (data: NIAID ChemDB).

Shared fields: whole-cell or culture tests; species: Mycobacterium avium; measure: MIC

Neighbouring rows are from separate reports. Blank or dashed fields: not listed here.

{"smiles": "N[C@@H]1CONC1=O", "strain or isolate": "3011-C clarithromycin-resistant", "result": "8 µg/mL"}
{"smiles": "CCN1CC(c2ccccc2)NC(C#N)=C1C#N", "method": "broth dilution / visual reading", "result": "1.5 µg/mL"}
{"smiles": "CC[C@@H](C(=O)[C@@H](C)[C@@H](O)[C@H](C)[C@@H]1O[C@@H]([C@@H](CC)C(=O)O)CC[C@@H]1C)[C@H]1O[C@@]2(C=C[C@@H](O)[C@@]3(CC[C@@](C)([C@H]4CC[C@](O)(CC)[C@H](C)O4)O3)O2)[C@H](C)C[C@@H]1C", "method": "resazurin", "strain or isolate": "Vet 1387", "result": "10 µg/mL"}
{"smiles": "CC[C@H]1OC(=O)[C@H](C)[C@@H](O[C@H]2C[C@@](C)(OC)[C@@H](O)[C@H](C)O2)[C@H](C)[C@@H](O[C@@H]2O[C@H](C)C[C@H](N(C)C)[C@H]2O)[C@](C)(OC)C[C@@H](C)C(=O)[C@H](C)[C@@H](O)[C@]1(C)O", "strain or isolate": "RG0", "result": "2 µg/mL"}
{"smiles": "COc1c(N2CCNC(C)C2)c(F)cc2c(=O)c(C(=O)O)cn(C3CC3)c12", "method": "broth dilution", "strain or isolate": "N-444", "result": "2 µg/mL"}
{"smiles": "O=C(/C=C/c1ccccc1Cl)c1cnccn1", "method": "absorbance", "strain or isolate": "Chester", "result": ">100 µg/mL"}
{"smiles": "CO[C@H]1/C=C/O[C@@]2(C)Oc3c(C)c(O)c4c(O)c(c(/C=N/N5CCN(C)CC5)c(O)c4c3C2=O)NC(=O)/C(C)=C\\C=C\\[C@H](C)[C@H](O)[C@@H](C)[C@@H](O)[C@@H](C)[C@H](OC(C)=O)[C@@H]1C", "strain or isolate": "6-12", "result": "5 µg/mL"}
{"smiles": "CCCc1cnc(C(=O)/C=C/c2ccc(Br)cc2)cn1", "method": "absorbance", "strain or isolate": "Chester", "result": ">50 µg/mL"}
{"smiles": "CC[C@@H](CO)NCCN[C@@H](CC)CO", "method": "broth dilution", "strain or isolate": "N-444", "result": "16 µg/mL"}
{"smiles": "CC(C)c1cnc(C(=O)/C=C/c2ccc(Cl)cc2)cn1", "method": "absorbance", "strain or isolate": "Chester", "result": ">50 µg/mL"}
{"smiles": "CC[C@H]1OC(=O)[C@H](C)[C@@H](O[C@H]2C[C@@](C)(OC)[C@@H](O)[C@H](C)O2)[C@H](C)[C@@H](O[C@@H]2O[C@H](C)C[C@H](N(C)C)[C@H]2O)[C@](C)(OC)C[C@@H](C)C(=O)[C@H](C)[C@@H](O)[C@]1(C)O", "strain or isolate": "453-C clarithromycin-resistant", "result": "512 µg/mL"}
{"smiles": "O=C(Nc1ccc(Br)cc1)c1cc(Cl)ccc1OP(=O)(Oc1ccccc1)c1ccccc1", "conditions": "7 d", "strain or isolate": "MY330/88", "result": "16 µM"}
{"smiles": "O=C(O)c1cn(C2CC2)c2c(F)c(N3CCN4CCC3C4)c(F)cc2c1=O", "strain or isolate": "LR114R", "result": "0.06 µg/mL"}
{"smiles": "CCN1C(C#N)=C(C#N)N=C(c2cccs2)[C@H]1/C=C/c1ccccc1", "method": "broth dilution / visual reading", "result": "12.5 µg/mL"}
{"smiles": "O=C(Nc1ccc(C(F)(F)F)cc1)c1cc(Cl)ccc1OP(=O)(c1ccccc1)c1ccccc1", "conditions": "7 d", "strain or isolate": "MY330/88", "result": "8 µM"}
{"smiles": "CC[C@H]1OC(=O)[C@H](C)[C@@H](O[C@H]2C[C@@](C)(OC)[C@@H](O)[C@H](C)O2)[C@H](C)[C@@H](O[C@@H]2O[C@H](C)C[C@H](N(C)C)[C@H]2O)[C@](C)(OC)C[C@@H](C)C(=O)[C@H](C)[C@@H](O)[C@]1(C)O", "conditions": "pH 7.4", "method": "broth dilution / radiometric", "strain or isolate": "211", "result": "1 µg/mL"}
{"smiles": "CO[C@@H]1C[C@@H](C[C@H]2CC[C@H](C)[C@H]([C@@H](C)C(=O)O)O2)O[C@]2(O[C@](C)([C@H]3CC[C@@](C)([C@@H]4O[C@@H]([C@H]5O[C@@](O)(CO)[C@H](C)C[C@@H]5C)C[C@@H]4C)O3)C[C@H]2C)[C@@H]1C", "method": "resazurin", "strain or isolate": "Vet 1387", "result": ">20 µg/mL"}
{"smiles": "CC1CN(c2c(F)c(N)c3c(=O)c(C(=O)O)cn(C4CC4)c3c2F)CCN1C", "strain or isolate": "SMT", "result": "0.5 µg/mL"}
{"smiles": "CCN1CC(c2cccs2)=NC(C#N)=C1C#N", "method": "broth dilution / visual reading", "result": "12.5 µg/mL"}
{"smiles": "O=C(Nc1ccc(C(F)(F)F)cc1)c1cc(Br)ccc1OP(=O)(c1ccccc1)c1ccccc1", "conditions": "7 d", "strain or isolate": "MY330/88", "result": "8 µM"}
{"smiles": "CC(C)Cc1cnc(C(=O)/C=C/c2ccc(Br)cc2)cn1", "method": "absorbance", "strain or isolate": "Chester", "result": ">100 µg/mL"}
{"smiles": "CO[C@H]1/C=C/O[C@@]2(C)Oc3c(C)c(O)c4c(O)c(c(/C=N/N5CCN(C)CC5)c(O)c4c3C2=O)NC(=O)/C(C)=C\\C=C\\[C@H](C)[C@H](O)[C@@H](C)[C@@H](O)[C@@H](C)[C@H](OC(C)=O)[C@@H]1C", "strain or isolate": "1435-C clarithromycin-resistant", "result": "2 µg/mL"}
{"smiles": "CCCc1cnc(C(=O)/C=C/c2ccccc2Br)cn1", "method": "absorbance", "strain or isolate": "Chester", "result": ">100 µg/mL"}
{"smiles": "CCN1C(C#N)=C(C#N)N=C(c2ccsc2)[C@@H]1/C=C/c1ccccc1", "method": "broth dilution / visual reading", "result": "12.5 µg/mL"}
{"smiles": "CCCCc1cnc(C(=O)/C=C/c2ccc(Br)cc2)cn1", "method": "absorbance", "strain or isolate": "Chester", "result": ">50 µg/mL"}
{"smiles": "CO[C@H]1/C=C/O[C@@]2(C)Oc3c(C)c(O)c4c(O)c(c(/C=N/N5CCN(C)CC5)c(O)c4c3C2=O)NC(=O)/C(C)=C\\C=C\\[C@H](C)[C@H](O)[C@@H](C)[C@@H](O)[C@@H](C)[C@H](OC(C)=O)[C@@H]1C", "strain or isolate": "Isolate 90-0842", "result": "30 µg/mL"}
{"smiles": "CCCc1cnc(C(=O)/C=C/c2ccccc2F)cn1", "method": "absorbance", "strain or isolate": "Chester", "result": ">100 µg/mL"}
{"smiles": "CCN1C(C#N)=C(C#N)N=C(c2ccccc2)[C@@H]1/C=C/c1ccccc1", "method": "broth dilution / visual reading", "result": "12.5 µg/mL"}

The first 2 rows once more:

smiles,conditions,method,strain or isolate,result
N[C@@H]1CONC1=O,-,-,3011-C clarithromycin-resistant,8 µg/mL
CCN1CC(c2ccccc2)NC(C#N)=C1C#N,-,broth dilution / visual reading,-,1.5 µg/mL